# Experimental data: PMC7038234, “Screening of Natural Extracts for Inhibitors against Japanese Encephalitis Virus Infection” (Antimicrobial Agents and Chemotherapy, 2020)
# Test system: JEV strain AT31
# Settings: not given
row,Compound,Inhibition (%)
1,Ginkgolide C,-15.9339%
2,Cucurbitacin B,6.371%
3,Echinocystic acid,-0.5587%
4,Echinacoside,57.985%

# Same assay, conditions: Primary screening of 1034 compounds in the natural extracts library
row,Compound,Inhibition (%)
1,C=C1CC[C@@H]2[C@](C)(COC(=O)CCC(=O)[O-])[C@H](OC(=O)CCC(=O)O)CC[C@@]2(C)[C@@H]1/C=C/C1=CCOC1=O.[K+] [Kalii Dehydrographolidi Succinas],10.4647%
2,CC(C)=CCC[C@](C)(O[C@@H]1O[C@H](CO)[C@@H](O)[C@H](O)[C@H]1O)[C@H]1CC[C@]2(C)[C@@H]1[C@H](O)C[C@@H]1[C@@]3(C)CC[C@H](O)C(C)(C)[C@@H]3[C@@H](O[C@@H]3O[C@H](CO)[C@@H](O)[C@H](O)[C@H]3O[C@@H]3OC[C@@H](O)[C@H](O)[C@H]3O)C[C@]12C [Notoginsenoside R1],-1.263%
3,CCCCCC/C=C\CCCCCCCCCc1cccc(O)c1C(=O)O [Ginkgolic Acid C17:1],94.5029%
4,CCCCCCCCCCCCCC(=O)OCC(COC(=O)CCCCCCCCCCCCC)OC(=O)CCCCCCCCCCCCC [Tritetradecanoin],-15.9133%
5,COc1ccc([C@H]2OC[C@H]3[C@@H]2CO[C@@H]3c2cc(OC)c(OC)c(OC)c2)cc1OC [Magnolin],-2.996%
6,OC[C@@H](O)[C@@H](O)[C@H](O)[C@H](O)CO [D-Mannitol],54.8211%
7,Cl.O[C@H]1[C@H]2c3cc4c(cc3CN3CCC(=C[C@@H]1O)[C@H]23)OCO4 [Lycorine chloride],-5.437%
8,O=c1c(-c2ccc(O)c(O)c2)coc2c([C@@H]3O[C@H](CO)[C@@H](O)[C@H](O)[C@H]3O)c(O)ccc12 [3'-hydroxy Puerarin],9.685%
9,CC1(C)C2CCC1(C)C(OC1O[C@H](CO)[C@@H](O)[C@H](O)[C@H]1O)C2 (some centres unmarked) [Borneol-2-O-glucopyranoside],-3.113%
10,CC(=O)O[C@H]1[C@H](O[C@H]2CC[C@]34C[C@]35CC[C@]3(C)[C@@H]([C@@]6(C)CC[C@@H](C(C)(C)O)O6)[C@@H](O)C[C@@]3(C)[C@@H]5C[C@H](O[C@@H]3O[C@H](CO)[C@@H](O)[C@H](O)[C@H]3O)[C@H]4C2(C)C)OC[C@@H](O)[C@@H]1O [Astragaloside II],-1.503%
11,COc1cc2c(cc1O)C[C@H]1c3cc(O)c(OC)cc3CC[N+]1(C)C2.[Cl-] (some centres unmarked) [Phellodendrine chloride],-2.77%
12,CC1(C)C2CCC1(C)C(O[C@@H]1O[C@H](CO[C@@H]3OCC(O)(CO)[C@H]3O)[C@@H](O)[C@H](O)[C@H]1O)C2 (some centres unmarked),-8.215%
13,CC(C)(O)[C@@H]1CC[C@](C)([C@H]2[C@@H](O)C[C@@]3(C)[C@@H]4C[C@H](O[C@@H]5O[C@H](CO)[C@@H](O)[C@H](O)[C@H]5O)[C@H]5C(C)(C)[C@@H](O[C@@H]6OC[C@@H](O)[C@H](O)[C@H]6O[C@@H]6O[C@H](CO)[C@@H](O)[C@H](O)[C@H]6O)CC[C@@]56C[C@@]46CC[C@]23C)O1 [Astragaloside VI],34.1929%
14,O=C(/C=C/c1ccc(O)cc1)c1ccc(O[C@@H]2O[C@H](CO)[C@@H](O)[C@H](O)[C@H]2O)cc1O [neoisoliquritin],41.9799%
15,CC(C)(O)[C@@H]1CC[C@](C)([C@H]2[C@@H](O)C[C@@]3(C)[C@@H]4C[C@H](O)[C@H]5C(C)(C)[C@@H](O)CC[C@@]56C[C@@]46CC[C@]23C)O1 [Cycloastragenol],38.012%
16,O=C(O)c1cc(S(=O)(=O)O)ccc1O [Sulfosalicylic Acid],-4.884%
17,COc1ccc2cc3[n+](cc2c1OC)CCc1cc2c(cc1-3)OCO2 [Berberine Sulfate],32.8454%
18,O=[N+]([O-])c1ccc(-c2csc(CCl)n2)cc1,-0.6934%
19,COc1cc([C@@H]2c3cc4c(cc3[C@@H](O)[C@H]3COC(=O)[C@H]23)OCO4)cc(OC)c1O [4'-Demethylepipodophyllotoxin],3.967%

row,Compound,Inhibition (%)
1,CCOC(C)OCCc1ccccc1 (centres unmarked) [2-(1-Ethoxyethoxy)ethyl)benzene],-9.717%
2,C[C@@H]1CC[C@@]2(OC1)O[C@H]1C[C@H]3[C@@H]4CC[C@H]5C[C@@H](O)[C@H](O)C[C@]5(C)[C@H]4CC[C@]3(C)[C@H]1[C@@H]2C [Gitogenin],1.152%
3,Nc1nc(=O)[nH]c2c1ncn2[C@@H]1O[C@H](CO)[C@@H](O)[C@H]1O [Crotonoside],-2.093%
4,CC(C)=CCCc1ccoc1 [Perillen],4.067%
5,COc1cc(O)c2c(=O)cc(-c3ccc(O)c(O)c3)oc2c1 [hydroxygenkwanin],-28.1662%
6,C=C(CCC=C(C)C)[C@H]1CC[C@]2(C)[C@@H]1[C@H](O)C[C@@H]1[C@@]3(C)CC[C@H](O)C(C)(C)[C@@H]3[C@@H](O[C@@H]3O[C@H](CO)[C@@H](O)[C@H](O)[C@H]3O)C[C@]12C [Ginsenoside Rk3],88.7674%
7,C[C@@]12C[C@@H](c3ccoc3)OC(=O)[C@@H]1CC[C@]1(C)[C@H]2[C@@H]2C=C[C@@]1(O)C(=O)O2 [Columbin],-4.436%
8,Methyl hesperidin,-8.5605%
9,Maltopentaose,-13.9233%
10,O=C(O)C(O)C(O)C(=O)O (stereo not drawn) [D(-)-Tartaric acid],-8.496%
11,COc1c(/C=C/C(=O)c2ccc(O)cc2)ccc(O)c1CC=C(C)C [Licochalcone C],-1.113%
12,C=C(C)[C@@H]1CC=C(/C=N/O)CC1 [Perillartine],-1.21%
13,COC(=O)C1=CO[C@@H](O[C@@H]2O[C@H](CO)[C@@H](O)[C@H](O)[C@H]2O)[C@H]2[C@@H]1[C@H](O)C[C@]2(C)OC(C)=O [8-O-Acetyl shanzhiside methyl ester],-7.475%
14,COC1CC(OC2CCC3(C)C(CCC45CCC(C6=CC(=O)OC6)C(C)(CCC43)C5=O)C2)OC(C)C1O (centres unmarked) [Oleaside A],3.4363%
15,C=C1C(=O)O[C@@H]2C[C@@]3(C)CCC[C@H](C)C3=C[C@H]12 [Alantolactone],-10.943%
16,C/C=C(/C)C(=O)O[C@H]1c2c(ccc3ccc(=O)oc23)OC(C)(C)[C@H]1OC(=O)/C(C)=C\C [Praeruptorin B],83.235%
17,O=C(/C=C/c1ccc(O)cc1)NCCc1ccc(O)cc1 [Paprazine],-5.899%
18,CC(=O)O[C@H]1[C@H]2[C@@H](OC(=O)Cc3ccccc3)[C@@H](C)C[C@]2(OC(C)=O)C(=O)/C(C)=C/[C@@H]2[C@H](CC[C@@]13CO3)C2(C)C [Euphorbiasteroid],6.592%
19,Tubeimoside I,-148.437%

row,Compound,Inhibition (%)
1,C[C@@H]1CC[C@@]2(OC1)O[C@H]1C[C@H]3[C@@H]4CC=C5C[C@@H](O)C[C@@H](O[C@@H]6O[C@H](C)[C@H](O)[C@H](O[C@@H]7OC[C@@H](O)[C@H](O)[C@H]7O)[C@H]6O[C@@H]6O[C@@H](C)[C@H](O)[C@@H](O)[C@H]6O)[C@]5(C)[C@H]4CC[C@]3(C)[C@H]1[C@@H]2C [Ophiopogonin D],14.8422%
2,C[C@@H]1O[C@@H](O[C@@H]2[C@@H](O)[C@H](O)[C@@H](CO)O[C@H]2c2c(O)cc(O)c3c(=O)cc(-c4ccc(O)cc4)oc23)[C@H](O)[C@H](O)[C@H]1O,8.442%
3,COc1ccc(C[C@@H]2COc3c(C)c(O)c(C)c(O)c3C2=O)cc1 [Methylophiopogonanone B],15.1162%
4,C[C@@H]1CCCC2=CC(=O)[C@@H]3[C@@H](C3(C)C)[C@]21C [Aristolone],-1.243%
5,C=C1[C@@H]2CC[C@H]3[C@]4(C)C[C@H](O[C@@H]5O[C@H](CO)[C@@H](OS(=O)(=O)O)[C@H](OS(=O)(=O)O)[C@H]5OC(=O)CC(C)C)CC(C(=O)O)(C(=O)O)[C@H]4CC[C@]3(C2)[C@H]1O [Carboxyatractyloside],-15.3295%
6,Cc1cc(O)cc(OC2O[C@H](CO)[C@@H](O)[C@H](O)[C@H]2O)c1 (some centres unmarked) [Orcinol glucosid],19.2563%
7,COc1cccc2c1cc1c3c(cc4c(c32)OCO4)C(=O)N1 [Aristololactam],5.952%
8,Glucosyl-vitexin,4.202%
9,C/C=C/c1cc(OC)c2c(c1)C(C)C(c1ccc(O)c(OC)c1)O2 (centres unmarked) [Dehydrodiisoeugenol],90.1156%
10,COc1cc2c(cc1O)C[C@H]1c3cc(O)c(OC)cc3CC[N@@+]1(C)C2 [Phellodendrine],-4.557%
11,COc1cc(/C=C/C(=O)OCC[N+](C)(C)C)cc(OC)c1O.N#C[S-] [Sinapine thiocyanate],-6.947%
12,COc1cc2c3c(cc4ccccc4c3c1OC)N(C)CC2,10.8704%
13,O=c1c(O[C@@H]2OC[C@@H](O)[C@H](O)[C@H]2O)c(-c2ccc(O)c(O)c2)oc2cc(O)cc(O)c12 [Quercetin 3-O-β-D-xylopyranoside],-8.981%
14,C[C@H](CO[C@@H]1O[C@H](CO)[C@@H](O)[C@H](O)[C@H]1O)[C@H]1CC[C@@]2(CC[C@]3(C)[C@H](CC[C@@H]4[C@@]5(C)CC[C@H](O[C@@H]6O[C@H](CO)[C@@H](O)[C@H](O)[C@H]6O[C@@H]6O[C@H](CO)[C@@H](O)[C@H](O)[C@H]6O)[C@@](C)(CO)[C@@H]5CC[C@]43C)[C@H]2O)CO1 [Hosenkoside B],-11.0302%
15,C[C@@]1(C(=O)O)CC[C@]2(C)CC[C@]3(C)C4=CC(=O)c5c(cc(O)c(O)c5C=O)[C@]4(C)CC[C@@]3(C)[C@@H]2C1 [Demethylzeylasteral],-30.5383%
16,C[C@]12CC[C@H](O)C[C@H]1CC[C@@H]1[C@@H]2[C@H](O)C[C@]2(C)[C@@H](c3ccc(=O)oc3)CC[C@]12O [Gamabufalin],64.7453%
17,C/C=C(/C)C(=O)O[C@H]1[C@@H](OC(C)=O)c2c(ccc3ccc(=O)oc23)OC1(C)C [Praeruptorin A],66.0418%
18,Liriope muscari baily saponins C,97.5501%

# Same assay, conditions: primary screening of 1034 compounds in the natural extracts library; red numbers = obvious cytotoxicity, blue numbers = insoluble in DMSO (colours not visible)
row,Compound,Inhibition (%)
1,Mogroside Ⅴ,-27.6848%
2,CC1CCC(C(C)C)C(O)C1 (centres unmarked) [menthol],4.292%
3,Liensinine perchlorate,99.1037%
4,(-)-Epicatechin gallate,42.9048%
5,O=C(O)/C=C/c1ccc(O)cc1 [p-Coumaric],-9.857%

# Where a name gives a salt, the structure may show the parent alone.
